Consider one compound from publication PMC8012719 (Frontiers in Pharmacology, 2021).

Sequences of proteins named here, by UniProt entry; tags and fusion partners are left off. Residues count along the entry.
UniProt O92284, 20-524 limits assumed: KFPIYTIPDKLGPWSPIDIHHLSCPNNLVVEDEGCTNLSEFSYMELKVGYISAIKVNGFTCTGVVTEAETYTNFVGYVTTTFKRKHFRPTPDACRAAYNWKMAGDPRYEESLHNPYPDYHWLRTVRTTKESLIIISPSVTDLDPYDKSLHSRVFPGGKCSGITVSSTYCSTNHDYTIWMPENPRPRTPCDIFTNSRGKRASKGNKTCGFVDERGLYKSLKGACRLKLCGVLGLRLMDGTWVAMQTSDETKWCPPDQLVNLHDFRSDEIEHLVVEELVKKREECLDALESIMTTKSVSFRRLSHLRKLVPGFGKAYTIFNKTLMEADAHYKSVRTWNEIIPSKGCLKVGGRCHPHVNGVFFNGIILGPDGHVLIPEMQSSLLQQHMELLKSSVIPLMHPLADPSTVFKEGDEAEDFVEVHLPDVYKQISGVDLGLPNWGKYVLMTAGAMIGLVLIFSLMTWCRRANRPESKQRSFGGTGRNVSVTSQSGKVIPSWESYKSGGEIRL

SMILES strings stand for the structures. Where only a bound is given, the exact number is not on record here.

The target of test [1] is CVS glycoprotein G (Rabies virus, UniProt O92284). It counts as cell-based. The settings on record: pH 5.
Test [2] concerns pVSV (pseudovirus expressing a vesicular stomatitis virus envelope glycoprotein). It counts as cell-based.
The test system of test [3] is RABV CVS strain. Format: cell-based, rabies virus.
Test [4] relates to pRABV (pseudovirus enveloped by the RABV glycoprotein G). Format: cell-based, rabies virus.

Turning to `CC(C)/N=c1\cc2n(-c3ccc(Cl)cc3)c3ccccc3nc-2cc1Nc1ccc(Cl)cc1` [Clofazimine], the “syncytium formation (G-mediated membrane fusion)” value in test [1] was “significantly inhibited syncytium formation”. Also, the EC50pVSV/EC50pRABV in test [2] stood at 6.3. Besides, the SI entry in test [3] is listed as “over 967”. Moreover, the “SI pRABV” value in test [4] is over 120.
